According to publication PMC3569735:
pEC50, pKd: −log10 of the molar value.

Assays:
V1–V2 bnAb PG9 (human) = assay: SPR
[1] = molecular target: gp70 B.CaseA2 V1–V2 (HIV-1 (B.CaseA2)); assay: ELISA

| Substance | pKd (V1–V2 bnAb PG9 (human)) | fold slower association rate than CH58 and CH59 (V1–V2 bnAb PG9 (human)) | pEC50 [1] |
| --- | --- | --- | --- |
| AE.A244 V1–V2 tags protein (domain or fragment) | 7.09 | 40 fold | – |
| mAb CH58 (antibody) | – | – | 8.03 |
